Measured values from several laboratories, pooled; numbers as filed in NIAID ChemDB.

All rows: tests in culture

An empty or dashed field is not shown.

smiles	agent	strain or isolate	changes	cells	read by	measure	result
NC(=O)c1ncn([C@@H]2O[C@H](CO)[C@@H](O)[C@H]2O)n1	Dengue virus	TYPE 2	-	VERO	cytopathic effect	EC50	>80 µg/mL
NC(=O)c1ncn([C@@H]2O[C@H](COP(=O)(O)O)[C@@H](O)[C@H]2O)n1	Pichinde virus	-	-	VERO 76	antigen	EC50	15.8 µg/mL
C=C1C(=O)CCC1C(=O)O	Herpes simplex virus 1	KOS	-	HeLa	cytopathic effect	EC50	>200 µg/mL
CCCN(CCC)c1c([N+](=O)[O-])cc(S(N)(=O)=O)cc1[N+](=O)[O-]	Toxoplasma gondii	Ethalfluralin-resistant	-	-	-	EC50	3 µM
Nc1nc2c(ncn2COCCOCP(=O)(O)O)c(=O)[nH]1	Mouse cytomegalovirus	Ganciclovir-resistant	-	C1271	plaque count	EC50	11.2 µM
CCCCCCCCCC(=O)N[C@H]1[C@H](Oc2c3cc4cc2Oc2ccc(cc2Cl)[C@@H](O[C@@H]2O[C@H](CO)[C@@H](O)[C@H](O)[C@H]2NC(C)=O)[C@@H]2NC(=O)[C@H](NC(=O)[C@@H]4NC(=O)[C@H]4NC(=O)[C@@H](Cc5ccc(c(Cl)c5)O3)NC(=O)[C@H](N)c3ccc(O)c(c3)Oc3cc(O)cc4c3)c3ccc(O)c(c3)-c3c(O[C@H]4O[C@H](CO)[C@@H](O)[C@H](O)[C@@H]4O)cc(O)cc3[C@H](C(=O)O)NC2=O)O[C@H](CO)[C@@H](O)[C@@H]1O	Staphylococcus aureus	24 strains (ofloxacin-susceptible)	-	-	-	MIC90	2 µg/mL
Clc1ccc(COC(Cn2ccnc2)c2ccc(Cl)cc2Cl)c(Cl)c1	Candida albicans	ATCC 40277	-	-	broth dilution	MIC100	32 µg/mL
COC(=O)[C@H]1[C@H]2C[C@@H]3c4[nH]c5cc(OC)ccc5c4CCN3C[C@H]2C[C@@H](OC(=O)c2cc(OC)c(OC)c(OC)c2)[C@@H]1OC	Herpes simplex virus 1	KOS	-	HeLa	cytopathic effect	EC50	>200 µg/mL
CC[C@@]1(O)C(=O)OCc2c1cc1n(c2=O)Cc2cc3ccccc3nc2-1	Saccharomyces cerevisiae	Mutant ΔERG6 ΔTOP1	-	-	-	MIC	>100 µg/mL
CN1CCN(c2c(F)cc3c(=O)c(C(=O)O)cn4c3c2SCC4)CC1	Haemophilus influenzae	44 strains	-	-	-	MIC50	0.5 µg/mL
CC[C@@]1(OC(=O)CN)C(=O)OCc2c1cc1n(c2=O)Cc2cc3c(N)c4c(cc3nc2-1)OCO4	Saccharomyces cerevisiae	Mutant ΔERG6	-	-	-	MIC	3.12 µg/mL
Nc1ccn([C@@H]2C[C@H](CO)[C@@H](O)[C@H]2O)c(=O)n1	Vesicular stomatitis virus	-	-	BALB/3T3	cytopathic effect	EC50	5 µg/mL
O=C(O)P(=O)(O)O	Mouse cytomegalovirus	HPMPC-resistant	-	C1271	plaque count	EC50	37 µM
CC[C@]1(O)C(=O)OCc2c1cc1n(c2=O)Cc2cc3cc4c(cc3nc2-1)OCO4	Saccharomyces cerevisiae	Mutant ΔERG6	-	-	-	MIC	>100 µg/mL
NC(=O)c1ncn([C@@H]2O[C@H](CO)[C@@H](O)[C@H]2O)n1	Measles virus	X-1108	-	CV-1	neutral red	EC50	20 µg/mL
CC[C@@]1(O)C(=O)OCc2c1cc1n(c2=O)Cc2cc3c(CN(C)C)c(O)ccc3nc2-1	Saccharomyces cerevisiae	Mutant ΔERG6 ΔTOP1	-	-	-	MIC	>1000 µg/mL
O[C@@H]1CC(n2cnc3cc(Cl)c(Cl)cc32)OC[C@@H]1O	Sindbis virus	-	-	HeLa	cytopathic effect	EC50	>200 µg/mL
COc1c(N2CCNC(C)C2)c(F)cc2c(=O)c(C(=O)O)cn(C3CC3)c12	Staphylococcus aureus	25 strains (methicillin-susceptible)	-	-	-	MIC50	0.12 µg/mL
CC[C@@]1(O)C(=O)OCc2c1cc1n(c2=O)Cc2cc3c(N)c4c(cc3nc2-1)OCO4	Saccharomyces cerevisiae	JHY6-1C	-	-	-	MIC	>100 µg/mL
O=c1[nH]c(=O)n([C@H]2C[C@H](O)[C@@H](CO)O2)cc1/C=C/Br	Adenovirus	TYPE 2	-	HEL	PCR	EC50	>500 µM
CO[C@@H]1[C@@H](O[C@@H]2O[C@H](C)[C@@H](O[C@H]3C[C@@](C)(O)[C@@H](O)[C@H](C)O3)[C@H](N(C)C)[C@H]2O)[C@@H](CC=O)C[C@@H](C)[C@@H](O)/C=C/C=C/C[C@@H](C)OC(=O)C[C@H]1O	Herpes simplex virus 1	KOS	-	HeLa	cytopathic effect	EC50	>200 µg/mL
OC[C@H]1O[C@@H](n2cnc3cc(Cl)c(Cl)cc32)[C@@H](O)[C@H]1O	Reovirus	TYPE 1	-	HeLa	cytopathic effect	EC50	>100 µg/mL
O=C(C=Cc1ccc(O)c(O)c1)O[C@@H]1C[C@](O)(C(=O)O)C[C@@H](O)[C@H]1O	Herpes simplex virus 1	KOS	-	HeLa	cytopathic effect	EC50	>200 µg/mL
CCc1c2c(nc3ccc(O)cc13)-c1cc3c(c(=O)n1C2)COC(=O)[C@]3(O)CC	Saccharomyces cerevisiae	Mutant ΔERG6	-	-	-	MIC	>100 µg/mL
CC(=O)NC[C@H]1CN(c2ccc(N3CCOCC3)c(F)c2)C(=O)O1	Staphylococcus aureus	25 strains (ofloxacin-resistant)	-	-	-	MIC90	2 µg/mL
OCCOC([C@H](O)CO)n1cnc2cc(Cl)c(Cl)cc21	Reovirus	TYPE 1	-	HeLa	cytopathic effect	EC50	>200 µg/mL
NC(=O)c1ncn([C@@H]2O[C@H](CO)[C@@H](O)[C@H]2O)n1	Adenovirus	TYPE 2	-	HEL	PCR	EC50	>100 µM
C[C@H]1NCc2cc(-c3ccc4c(=O)c(C(=O)O)cn(C5CC5)c4c3OC(F)F)ccc21	Staphylococcus aureus	25 strains (ofloxacin-resistant)	-	-	-	MIC50	2 µg/mL
CC[C@@]1(OC(=O)CN)C(=O)OCc2c1cc1n(c2=O)Cc2cc3ccccc3nc2-1	Saccharomyces cerevisiae	JHY6-1C	-	-	-	MIC	6.25 µg/mL
Cc1onc(-c2ccccc2)c1C(=O)N[C@@H]1C(=O)N2[C@@H]1SC(C)(C)[C@@H]2C(=O)O	Staphylococcus aureus	25 strains (methicillin-susceptible)	-	-	-	MIC50	0.5 µg/mL
C#CC[C@@H](C(=O)N[C@H](/C=C/C(=O)OCC)C[C@@H]1CCNC1=O)n1cccc(NC(=O)c2cc(C)on2)c1=O	Rhinovirus	Serotype 11	-	H1-HELA	cytopathic effect / XTT	EC50	0.033 µM
COc1cc(C[C@H](C)[C@H](C)Cc2ccc(O)c(O)c2)ccc1O	Candida tropicalis	CCC 131-1997	-	-	broth dilution	MIC100	62.5 µg/mL
OCCOC(CO)n1cnc2cc(Cl)c(Cl)cc21	Sindbis virus	-	-	HeLa	cytopathic effect	EC50	>200 µg/mL
CCn1cc(C(=O)O)c(=O)c2cc(F)c(N3CCNCC3)cc21	Staphylococcus aureus	30 strains	-	-	-	MIC90	4 µg/mL
Nc1ncc2c(ncn2COC(CO)CO)n1	Adenovirus	TYPE 2	-	HEL	-	EC50	0.61 µM
C[C@@H](c1nc(-c2ccc(C#N)cc2)cs1)[C@](O)(Cn1cnnc1)c1ccc(F)cc1F	Candida albicans	Isogenic isolate 15 Erg11 (4-5X) R467K	-	-	-	MIC	0.03 µg/mL
Cc1c(N2C[C@@H](F)[C@@H](C3(N)CC3)C2)c(F)c(N)c2c(=O)c(C(=O)O)cn([C@@H]3C[C@@H]3F)c12	Haemophilus influenzae	38 strains (ampicillin-susceptible)	-	-	-	MIC50	0.008 µg/mL
CC(C)[Si]1(C(C)C)OC[C@H]2O[C@@H](n3cnc4cc(Cl)c(Cl)cc43)[C@H](O)[C@H]2O[Si](C(C)C)(C(C)C)O1	Reovirus	TYPE 1	-	HeLa	cytopathic effect	EC50	>10 µg/mL
O=C1C=CN([C@@H]2O[C@H](CO)[C@@H](O)[C@H]2O)C(=O)C1	Pichinde virus	-	-	VERO 76	antigen	EC50	5.2 µg/mL
Nc1nc2c(ncn2COC(COCP(=O)(O)O)COCP(=O)(O)O)c(=O)[nH]1	Mouse cytomegalovirus	HPMPC-resistant	-	C1271	plaque count	EC50	3.7 µM
CC(C)(CO)C(=O)SCCOP(=O)(NCc1ccccc1)OC[C@H]1O[C@@H](n2cnc3c(=O)[nH]c(N)nc32)[C@](C)(O)[C@@H]1O	Hepatitis C virus	GT1a	Y93H	Replicon cells	replicon	fold resistance	1.05
O=C1C=C([C@@H]2O[C@H](CO)[C@@H](O)[C@H]2O)C(=O)N1	Herpes simplex virus 1	KOS	-	HeLa	cytopathic effect	EC50	>200 µg/mL
CN1CCN(c2c(F)cc3c(=O)c(C(=O)O)cn4c3c2SCC4CF)CC1	Staphylococcus aureus	30 strains	-	-	-	MIC50	0.5 µg/mL
O=c1ccn([C@H]2C[C@H](F)[C@@H](CO)O2)c(=O)[nH]1	Adenovirus	TYPE 2	-	HEL	-	EC50	>100 µM
OC[C@H]1O[C@H](n2cnc3cc(Cl)c(Cl)cc32)[C@@H](O)[C@H]1O	Parainfluenza virus	TYPE 3	-	HeLa	cytopathic effect	EC50	>200 µg/mL
Nc1ccn(C[C@@H](CO)OCP(=O)(O)O)c(=O)n1	Mouse cytomegalovirus	Foscarnet-resistant	-	C1271	plaque count	EC50	0.3 µM
CO/N=C1\CN(c2nc3c(cc2F)c(=O)c(C(=O)O)cn3C2CC2)CC1CN	Staphylococcus aureus	25 strains (methicillin-susceptible)	-	-	-	MIC50	0.06 µg/mL
O[C@@H]1[C@@H](OCc2ccccc2)[C@@H](COCc2ccccc2)O[C@H]1n1cnc2cc(Cl)c(Cl)cc21	Reovirus	TYPE 1	-	HeLa	cytopathic effect	EC50	>10 µg/mL
Nc1nc2c(ncn2COCCO)c(=O)[nH]1	Adenovirus	TYPE 2	-	HEL	PCR	EC50	>500 µM

A second listing of 3 rows from above:

smiles,agent,strain or isolate,changes,cells,read by,measure,result
O[C@@H]1CC(n2cnc3cc(Cl)c(Cl)cc32)OC[C@@H]1O,Sindbis virus,-,-,HeLa,cytopathic effect,EC50,>200 µg/mL
O=C1C=C([C@@H]2O[C@H](CO)[C@@H](O)[C@H]2O)C(=O)N1,Herpes simplex virus 1,KOS,-,HeLa,cytopathic effect,EC50,>200 µg/mL
O[C@@H]1[C@@H](OCc2ccccc2)[C@@H](COCc2ccccc2)O[C@H]1n1cnc2cc(Cl)c(Cl)cc21,Reovirus,TYPE 1,-,HeLa,cytopathic effect,EC50,>10 µg/mL

ECn is the concentration giving n% inhibition of infection, replication or growth. MIC50, MIC90 and the like: level of inhibition, or share of isolates inhibited. Fold resistance: result on the changed form divided by that on wild type. Neighbouring rows are from separate reports.